# According to patent publication US7786054B2, “Biocide for well stimulation and treatment fluids” (Kemira Chemicals, Inc., priority 2006, dated 2010):
# “Also recorded” adds a separate entry of the source.
# How the values were obtained:
# [1] = Effect of heat (180° F.) on viscosity of biocide/polymer fluids; details: 500 ppm biocide, FIG. 4
# [2] = Friction loop compatibility of biocide with anionic friction reducer; details: total biocide loading 1000 ppm; FIG. 6
smiles,measurement,setting,value
"O=CCCCC=O [Glut, glutaraldehyde]",polymer viscosity after four hours at temperature,[1]; 180° F. for 4 hours,maintained nearly all its viscosity
same,polymer viscosity at the eight-hour mark,[1]; 180° F. for 8 hours,only slightly reduced viscosity
same,"% FR relative to control, 150 to 420 second time interval",[2],remained even with that of the blank sample; also recorded: no effect on the performance of the polymer
